Experimental data published in PubChem BioAssay AID624309 (Sanford-Burnham Center for Chemical Genomics, 2012).
The entries are a selection whose mix differs from that of the whole data set. Activity calls are given as the source filed them. Cut-off read from the data, not from the text of the source: active = inhibition mostly above about 42% (no sharp cut-off); inactive = mostly below about 42%.

System: Nicotinate mononucleotide adenylyltransferase NadD (Staphylococcus aureus N315)
Assay: S. aureus NadD enzyme activity blockers – biochemical, colorimetric, single concentration, confirmation (AID 624309)
Conditions: purified S. aureus NadD, colorimetric enzyme assay; at 20 µM; stronger effect = higher value

Row | Structure (SMILES) | inhibition
1 | CCCCn1nnnc1C(c1cc2ccccc2o1)N1CCC(n2c(=O)[nH]c3ccccc32)CC1 (configuration not stated) | inactive: 19.4%
2 | O=c1[nH]c2ccccc2n1C1CCN(C(c2cccc3ccccc23)c2nnnn2C2CCCC2)CC1 (configuration not stated) | inactive: 25.6%
